A mixed list of measured activities; the numbers were collected in NIAID ChemDB.

All rows: host cell toxicity; read-out: CC50

Rows are shuffled and stem from different studies.

smiles	cell line	read by	value
NC(=S)N=Nc1c(O)n(CN2CCN(c3ccnc4cc(C(F)(F)F)ccc34)CC2)c2cc(Br)ccc12	Human foreskin fibroblasts	MTT / absorbance	3.15 µM
CC(C)(C)[Si](C)(C)O[C@@H]1C[C@@H](/C=C/I)N2CCCC[C@H]12	Human foreskin fibroblasts (HFF)	MTT	34 µM
COC(=S)P(=O)([O-])OC	BCBL-1		>200 µM
Cc1cn([C@@H]2O[C@H](CO)[C@@H](O)[C@@H]2O)c(=O)[nH]c1=O	HELF		100 µg/mL
COC1=CC(=O)C(O)=C/C1=C\C=C\c1ccccc1	Jurkat cells	luminescence	>100 µM
COc1cc2c(cc1OC)[C@]13C[C@@H](OC)C=CC1=CCN3CC2	HEP-2	MTT	21.6 µg/mL
O=c1[nH]c(-c2ccc3[nH]ncc3c2)nc2ccccc12	OM-10.1	MTT	76.1 µM
CC1=C(C)C(CO)(CO)C[C@H]1n1ccc(N)nc1=O	HEL 299		>100 µg/mL
CCOP(=O)(C[C@@H]1C[C@H](n2cc(C)c(=O)[nH]c2=O)O[C@@H]1CO)OCC	PBMC	trypan blue	>100 µM
CSC(=S)P(=O)([O-])SC	BCBL-1		>200 µM
O=C(/C=C/c1ccc(O)cc1)[Se]c1ccccc1	HLE	WST	>100 µM
Nc1nc2c(ncn2[C@H]2C[C@]23C[C@@H]3CO)c(=O)[nH]1	BSC-1		>100 µM
Cc1cc(N)c2ccccc2[n+]1CCCCCCCCCC[n+]1c(C)cc(N)c2ccccc21	Jurkat cells	luminescence	0.3 µM
OC[C@H]1C[C@@H](n2cnc3c(SCc4ccc(Cl)cc4)ncnc32)[C@H](O)[C@@H]1O	CRL-1634	MTT	>100 µM
CN(C)C[C@@H]1C2CC(c3ccccc32)[C@H]1N	G-2		>100 µg/mL
CN(C(=O)Oc1ccccc1C(=O)Nc1ccccc1)c1ccccc1	HepG2 cell	MTT	279.9 µM
Nc1ccn([C@@H]2CS[C@H](CO)O2)c(=O)n1	Li-7	WST	>100 µM
COc1cccc(-c2nn(-c3ccccc3)cc2/C=C/c2nc3sccn3c(=O)c2-c2ccc(C#N)cc2)c1	Monocyte-derived macrophages	MTT	189 µg/mL
Cc1cn([C@H]2C[C@@H](CO)[C@@H](COC(c3ccccc3)(c3ccccc3)c3ccccc3)O2)c(=O)[nH]c1=O	PBMC	trypan blue	>100 µM
C[C@]1(/C=C/Cl)C[C@](Cl)(CBr)[C@@H](Br)C[C@H]1Cl	ZR		7.8 µg/mL
C=C(C)[C@H]1Cc2c(ccc3c2O[C@@H]2COc4cc(OC)c(OC)cc4[C@@H]2C3=O)O1	Jurkat cells	luminescence	>100 µM
Nc1ccn([C@@H]2C=C(CO)[C@@H](O)[C@@H]2O)c(=O)n1	MA-104		>100 µg/mL
Nc1ccc(-c2nc3ccccc3c(=O)[nH]2)cc1	OM-10.1	MTT	338.8 µM
COCO[C@@H]1C[C@@H](/C=C/I)N2CCCC[C@@H]12	Human foreskin fibroblasts (HFF)	MTT	49 µM
Cc1cn([C@H]2C[C@H](N=[N+]=[N-])[C@@H](CO)O2)c(=O)[nH]c1=O	MOLT-4/8	MTT	63.3 µM
NC1CCC(CN2CC(=O)N3C[C@@H](N(CCOc4ccccc4)S(=O)(=O)c4cccc(F)c4)C[C@H]3C2=O)CC1	HEK		>10 µM
CCOC(=O)C(N)(c1c[nH]c2ccccc12)C(F)(F)F	TZM-bl	MTT	69.9 µM
Cn1c2ccccc2c2c3c(c4c5ccccc5n(CCC#N)c4c21)CNC3=O	U1/HIV-1(PMA)		0.18 µM
Nc1nc(NC2CC2)c2ncn([C@H]3C=C[C@@H](CO)C3)c2n1	HB611		>200 µM
CC(=O)OC(C1C=C(C)C(=O)O1)C(C)C1C2C3(O)OC4(CCC12C)C(=CCC1C(C)(C)OC2CC(=O)OC21C4O)C3=O	HL-60	MTT	6.75 µg/mL
NC12CC3CC(CC(C3)C1)C2	G-2		>100 µg/mL
Nc1ccc(S(=O)(=O)Nc2ncccn2)cc1	CRL-1634	MTT	>98 µM
Cc1ccc(/C=C/C=C/C(=O)[Se]c2ccccc2)cc1	Li-7	WST	>100 µM
NC(=O)c1ncn([C@@H]2O[C@H](CO)[C@@H](O)[C@H]2O)n1	MA-104		>100 µg/mL
COC(=O)[C@H](C)NP(=O)(OC[C@@H]1C[C@]12C[C@@H]2n1cnc2c(N)ncnc21)Oc1ccccc1	BSC-1		70 µM
CCCN(CCC)c1c([N+](=O)[O-])cc(C(F)(F)F)cc1[N+](=O)[O-]	MDCK		>10 µM
NC(=S)N=Nc1c(O)n(CN2CCN(c3ccnc4cc(C(F)(F)F)ccc34)CC2)c2cccc(Cl)c12	Human foreskin fibroblasts	MTT / absorbance	8 µM
CN(C)C(=S)Oc1ccc(Cl)cc1C(=O)Nc1ccc(C(F)(F)F)cc1	HepG2 cell	MTT	67.29 µM
CO[C@H]1C=CC2=CC(=O)N3CCc4cc5c(cc4[C@]23C1)OCO5	HEP-2	MTT	18.5 µg/mL
C#C[C@@H]1C[C@@H](O)[C@H]2CCCCN12	Human foreskin fibroblasts (HFF)	MTT	84 µM
O=C(NC1CCCCC1)NC1N=C(c2ccccc2)c2ccccc2NC1=O	HEP-2		1.5 µM
CC(=O)NC[C@H]1CN(c2ccc(N3CCN(Cc4nc5ccccc5[nH]4)CC3)c(F)c2)C(=O)O1	THP-1	MTT	>100 µg/mL
C=C1C(=O)O[C@@H]2/C=C(\COC(C)=O)CC/C=C(/C=O)C[C@@H](O)[C@@H]12	WI38 human fibroblasts	WST / absorbance	3.03 µg/mL
Nc1nc2c(ncn2[C@H]2C[C@@]23C[C@H]3CO)c(=O)[nH]1	BSC-1		>100 µM
COC(=O)C(N)(c1c(C)[nH]c2ccccc12)C(F)(F)F	TZM-bl	MTT	>140 µM
CC(c1ccc2oc3ccccc3c2c1)n1cc(-c2ccc3oc4ccccc4c3c2)nn1	HEK293T	MTT	>50 µg/mL
CCOC(=O)C(N)(c1c[nH]c2ccc(C=O)cc12)C(F)(F)F	TZM-bl	MTT	>127 µM
CN(C)C(=O)Oc1ccc(Cl)cc1C(=O)Nc1ccc(Br)cc1	HepG2 cell	MTT	342.5 µM
CC[C@@]1(O)C(=O)OCc2c1cc1n(c2=O)Cc2cc3c(N)cccc3nc2-1	WI-38	MTT	0.4 µg/mL
O=C(Nc1ccc(C(F)(F)F)cc1)c1cc(Cl)ccc1OC(=O)N(c1ccccc1)c1ccccc1	HepG2 cell	MTT	>100 µM
NC(=O)c1[nH]nc([C@@H]2O[C@H](CO)[C@@H](O)[C@H]2O)c1O	MA-104		90 µg/mL
N#Cc1ccc(-c2c(/C=C/c3cn(-c4ccc(Cl)cc4)nc3-c3ccccc3)nc3sccn3c2=O)cc1	Monocyte-derived macrophage	MTT	172 µg/mL
O=C(NC1N=C(c2ccccc2)c2ccccc2NC1=O)c1ccc([N+](=O)[O-])cc1	VERO		2 µM
Nc1nc([Se]Cc2ccccc2)c2ncn([C@H]3CC[C@@H](CO)O3)c2n1	Human fibroblasts	MTT	>5 µM
O=C(Cc1ccc([N+](=O)[O-])cc1)NC1N=C(c2ccccc2)c2ccccc2NC1=O	VERO		1 µM
O=C([S-])P(=O)([O-])[O-]	BCBL-1		>300 µM
Nc1ccn([C@H]2CC[C@@H](CO)O2)c(=O)n1	MOLT-4/8	MTT	47.2 µM
COc1ccc(C2CNC(=O)C2)cc1OC1CCCC1	A3.5		>>100 µM
Cc1cn([C@H]2C[C@@H](CI)[C@@H](CO)O2)c(=O)[nH]c1=O	PBMC	trypan blue	>100 µM
O=C1C(=O)N(CCCNc2ccnc3cc(Cl)ccc23)c2cc(Cl)ccc21	Human foreskin fibroblasts	MTT / absorbance	5.25 µM
O=c1[nH]cnc2c1ncn2[C@H]1CC[C@@H](CO)O1	MOLT-4/8	MTT	1937 µM
COc1cccc(C2(c3ccccc3)NC(NC(=O)c3cccs3)C(=O)Nc3ccccc32)c1	HEP-2		4 µM
CC1=C(C)[C@](CO)(c2ccccc2)C[C@H]1n1ccc(N)nc1=O	HEL 299		>100 µg/mL
O=[N+]([O-])c1ccc(CNc2ncnc3c2ncn3[C@H]2CC[C@@H](CO)O2)cc1	Human fibroblasts	MTT	>5 µM
Cc1ccccc1-c1nn(-c2ccccc2)cc1/C=C/c1nc2sccn2c(=O)c1-c1ccc(C#N)cc1	Monocyte-derived macrophages	MTT	381 µg/mL
CCc1nc(N)nc(N)c1-c1ccc(Cl)cc1	Human foreskin fibroblasts (HFF)	MTT	44 µM
O=C1O[C@H]([C@@H]2COC(c3ccccc3)O2)C(O)=C1O	U1		30 µg/mL
O=C(/C=C/C=C/c1ccc(Br)cc1)[Se]c1ccccc1	Li-7	WST	>100 µM
CO[C@@H]1C[C@@H](C[C@H]2CC[C@H](C)[C@H]([C@@H](C)C(=O)O)O2)O[C@]2(O[C@](C)([C@H]3CC[C@@](C)([C@@H]4O[C@@H]([C@H]5O[C@@](O)(CO)[C@H](C)C[C@@H]5C)C[C@@H]4C)O3)C[C@H]2C)[C@@H]1C	Jurkat cells	luminescence	0.1 µM
Nc1ncn([C@@H]2O[C@H](CO)[C@@H](O)[C@H]2O)c(=O)n1	H9rAZT2000	MTT	566 µM
COP(=O)([O-])C(=S)SC	BCBL-1		>200 µM
O=C(Nc1ncnc2c1ncn2[C@H]1CC[C@@H](CO)O1)c1ccccc1	Human fibroblasts	MTT	<5 µM
Nc1nc2c(ncn2[C@H]2C[C@@]23C[C@@H]3CO)c(=O)[nH]1	BSC-1		>100 µM
CC(=O)NC[C@H]1CN(c2ccc(N3CCN(c4nc(Cl)cc(Cl)n4)CC3)c(F)c2)C(=O)O1	THP-1	MTT	11.6 µg/mL
CCOC(=O)C(N)(c1c[nH]c2ccc(C#N)cc12)C(F)(F)F	TZM-bl	MTT	90 µM
O=C1C=C2C=C[C@@H]3C[C@@]2(O1)[C@H]1CCCCN31	Human foreskin fibroblasts (HFF)	MTT	81 µM

The first 5 rows once more:

{"smiles": "NC(=S)N=Nc1c(O)n(CN2CCN(c3ccnc4cc(C(F)(F)F)ccc34)CC2)c2cc(Br)ccc12", "cell line": "Human foreskin fibroblasts", "read by": "MTT / absorbance", "value": "3.15 µM"}
{"smiles": "CC(C)(C)[Si](C)(C)O[C@@H]1C[C@@H](/C=C/I)N2CCCC[C@H]12", "cell line": "Human foreskin fibroblasts (HFF)", "read by": "MTT", "value": "34 µM"}
{"smiles": "COC(=S)P(=O)([O-])OC", "cell line": "BCBL-1", "value": ">200 µM"}
{"smiles": "Cc1cn([C@@H]2O[C@H](CO)[C@@H](O)[C@@H]2O)c(=O)[nH]c1=O", "cell line": "HELF", "value": "100 µg/mL"}
{"smiles": "COC1=CC(=O)C(O)=C/C1=C\\C=C\\c1ccccc1", "cell line": "Jurkat cells", "read by": "luminescence", "value": ">100 µM"}

CCn is the concentration with n% toxicity to the cells. An empty or dashed field is not shown.